Measured values from several laboratories, pooled; numbers as filed in NIAID ChemDB.

Common to all: host cell toxicity; cell line: MT-4; method: MTT; read-out: CC50

CCn is the concentration with n% toxicity to the cells. Rows are shuffled and stem from different studies.

smiles	result
CCc1c(Sc2cccc3ccccc23)n(COCc2cccc(C)c2)c(=O)[nH]c1=O	28.73 µM
Nc1ccn([C@H]2CC[C@@H](CO)O2)c(=O)n1	>2.12 µg/mL
O=S1(=O)N=C(Nc2ccccc2Cl)C=C(Cc2cccc3ccccc23)N1	154 µM
Cc1cc(C#N)cc(C)c1Oc1ccnc(NC2CCN(CC(=O)Nc3ccc(C#N)cc3F)CC2)n1	1.962 µM
CCN(CC(=O)O)S(=O)(=O)c1cc(Cl)ccc1N	>200 µM
c1ccc(-c2nnc3n2-c2ccccc2-n2c(-c4ccccc4)nnc2C3N2CCOCC2)cc1	32 µM
CC(CC1CCCCC1)c1cc(=O)[nH]c(SCC(=O)c2ccc(F)cc2)n1	108 µM
N#Cc1ccc(Cn2cc(CSc3nc(Cc4c(Cl)cccc4Cl)cc(=O)[nH]3)nn2)cc1	133 µM
CC(c1cc(=O)[nH]c(SCC(=O)c2ccc(F)cc2)n1)C1CCCCC1	165 µM
NC(=O)c1ccc(NC2=NS(=O)(=O)NC(Cc3ccccc3)=C2)cc1	286 µM
C[C@H]1[C@H](O)[C@H](C)[C@@]2(NC(=O)OC(C)(C)C)O[C@@H]1[C@H]1O[C@H]12	>440 µM
CCc1c(C(C)CC2CCCCC2)nc(SCC(=O)c2ccccc2)[nH]c1=O	32 µM
O=S1(=O)NC(Cc2ccccc2)=CC(=NCCc2ccccc2)N1	192 µM
Cc1cn([C@H]2C=C[C@@H](CO)O2)c(=O)[nH]c1=O	74 µM
Cc1ccnc2c1NC(=O)c1cccnc1N2C1CC1	>15.02 µM
C[C@H]1[C@H](O)[C@H](C)[C@@]2(NC(=O)OC(C)(C)C)O[C@@H]1[C@@H]1O[C@@H]12	>440 µM
NC(=O)c1ccc(NC2=NS(=O)(=O)NC(Cc3ccc4ccccc4c3)=C2)cc1	>245 µM
Cc1cc(C#N)cc(C)c1Oc1ccnc(NC2CCN(CC(=O)Nc3ccc(S(N)(=O)=O)cc3)CC2)n1	1.606 µM
Cc1cn([C@H]2C[C@H](N=[N+]=[N-])[C@@H](CO)O2)c(=O)[nH]c1=O	46 µM
O=S1(=O)NC(Cc2ccc(Cl)cc2Cl)=CC(=NC2CCN(Cc3ccc(F)cc3)CC2)N1	103 µM
CC(C)c1c(Sc2cccc3ccccc23)n(COCc2ccccc2)c(=O)[nH]c1=O	35.3 µM
Cc1ccccc1CN1CCC(N=C2C=C(Cc3ccc(Cl)cc3Cl)NS(=O)(=O)N2)CC1	107 µM
CC(C)=NOC(=O)OC[C@H]1O[C@@H](n2cc(C)c(=O)[nH]c2=O)C[C@@H]1N=[N+]=[N-]	182 µM
CC1C(=O)Nc2ccc(Cl)cc2S(=O)(=O)N1CC1OC1(C)C	57 µM
CC(Sc1nc2ncccc2n1-c1ccc(C2CC2)c2ccccc12)C(=O)Nc1ccc(C(N)=O)cc1Cl	2.01 µM
Cc1cn([C@@H]2C=C[C@H](COC(=O)NCCCCNC(=O)OC[C@H]3O[C@@H](n4cc(C)c(=O)[nH]c4=O)C[C@@H]3N=[N+]=[N-])O2)c(=O)[nH]c1=O	217.3 µM
CC(C)Nc1cccnc1N1CCN(C(=O)c2cc3cc(NS(C)(=O)=O)ccc3[nH]2)CC1	>36.19 µM
c1cc(CN2CCCNCCNCCCNCC2)ccc1CN1CCCNCCNCCCNCC1	>50 µM
NCC#Cc1cn([C@H]2C=C[C@@H](CO)O2)c(=O)[nH]c1=O	>100 µM
CC(=O)O[C@H]1[C@H](C)[C@@H]2O[C@](NC(=O)OC(C)(C)C)([C@H]1C)[C@H]1O[C@@H]21	>76 µM
Cc1cn([C@@H]2C[C@@H](N=[N+]=[N-])[C@H](COC(=O)NCCCCNC(=O)OC[C@H]3O[C@@H](n4cc(C)c(=O)[nH]c4=O)C[C@@H]3N=[N+]=[N-])O2)c(=O)[nH]c1=O	153.7 µM
CCN1C(C)C(=O)Nc2c([N+](=O)[O-])cc(Cl)cc2S1(=O)=O	105 µM
COc1ccc(Cn2cc(CSc3nc(Cc4cccc5ccccc45)c(C)c(=O)[nH]3)nn2)cc1	26.53 µM
Cc1cn([C@@H]2C[C@@H](N=[N+]=[N-])[C@H](COC(=O)OC[C@H]3O[C@@H](n4cc(C)c(=O)[nH]c4=O)C[C@@H]3N=[N+]=[N-])O2)c(=O)[nH]c1=O	128.1 µM
O=S1(=O)N=C(Nc2ccc(F)c(F)c2F)C=C(Cc2ccc3ccccc3c2)N1	143 µM
CCc1c(Sc2ccc3ccccc3c2)n(COC)c(=O)[nH]c1=O	210 µM
CCC(C)(NC(=O)c1ccc(NC(=O)CSc2nc3ncccc3n2-c2ccc(C3CC3)c3ccccc23)c(Cl)c1)C(=O)O	5.04 µM
Cc1cn([C@H]2C[C@H](N=[N+]=[N-])[C@@H](CO)O2)c(=O)[nH]c1=O	>1 µM
Cc1ccnc2c1NC(=O)c1cccnc1N2C1CC1	>15.02 µM
Cc1cn([C@@H]2C=C[C@H](COC(=O)NCCCCNC(=O)OC[C@@H]3C=C[C@H](n4cc(C)c(=O)[nH]c4=O)O3)O2)c(=O)[nH]c1=O	178.5 µM
CC1c2n[nH]c(=O)n2-c2ccccc2-n2c1n[nH]c2=O	>200 µM
Cc1cc(C#N)cc(C)c1Oc1ccnc(NC2CCN(CC(=O)Nc3ccccc3)CC2)n1	1.818 µM
O=S1(=O)NC(Cc2ccc(Cl)cc2Cl)=CC(=NC2CCN(Cc3ccc(Br)cc3)CC2)N1	97.9 µM
O=C(NCC#Cc1cn([C@H]2C=C[C@@H](CO)O2)c(=O)[nH]c1=O)C(F)(F)F	37 µM
Cc1c(C(C)C2CCCCC2)nc(SCC(=O)c2ccccc2)[nH]c1=O	259 µM
Cc1ccccc1NC(=O)CN1CCC(Nc2nccc(Oc3c(C)cc(C#N)cc3C)n2)CC1	1.254 µM
CN(C)c1ccc(NC2=NS(=O)(=O)NC(Cc3ccc4ccccc4c3)=C2)cc1	33 µM
Cc1ccccc1CN1C(C)C(=S)Nc2ccc(Cl)cc2S1(=O)=O	≥200 µM
Cc1cn([C@H]2C[C@H](N=[N+]=[N-])[C@@H](COC(=O)CCC(=O)OCC3OC4OC5C(COS(=O)(=O)O)OC(OC6C(COS(=O)(=O)O)OC(OC7C(COS(=O)(=O)O)OC(OC8C(COS(=O)(=O)O)OC(OC9C(COS(=O)(=O)O)OC(OC3C(OS(=O)(=O)O)C4OS(=O)(=O)O)C(OS(=O)(=O)O)C9OS(=O)(=O)O)C(OS(=O)(=O)O)C8OS(=O)(=O)O)C(OS(=O)(=O)O)C7OS(=O)(=O)O)C(OS(=O)(=O)O)C6OS(=O)(=O)O)C(OS(=O)(=O)O)C5OS(=O)(=O)O)O2)c(=O)[nH]c1=O	55.33 µg/mL
C#C[C@@]1(CO)C=C[C@H](n2cc(C)c(=O)[nH]c2=O)S1	>100 µM
COc1ccc(C(=O)CSc2nc(CCC3CCCCC3)cc(=O)[nH]2)cc1	156 µM
O=c1[nH]c(SCc2cn(Cc3ccccc3)nn2)nc(Cc2c(Cl)cccc2Cl)c1I	104 µM
Cc1cc(C#N)cc(C)c1Oc1ccnc(NC2CCN(CC(=O)Nc3ccc(C#N)cc3)CC2)n1	0.602 µM
Cc1cc(NC2=NS(=O)(=O)NC(Cc3ccccc3)=C2)ccc1Cl	179 µM
Cc1ccccc1CN1CCC(N=C2C=C(Cc3cccc4ccccc34)NS(=O)(=O)N2)CC1	107 µM
CCc1nnc2n1-c1ccccc1-n1c(CC)nnc1C2C	>200 µM
COCCOCn1c(Sc2cccc3ccccc23)c(C(C)C)c(=O)[nH]c1=O	35.58 µM
O=c1[nH]c(SCc2cn(Cc3ccc(F)cc3)nn2)nc(Cc2cccc3ccccc23)c1I	81.81 µM
CCc1nnc2n1-c1ccccc1-n1c(CC)nnc1C2	>200 µM
CC(=O)c1ccc(Cn2cc(CSc3nc(Cc4c(Cl)cccc4Cl)c(C)c(=O)[nH]3)nn2)cc1	32.58 µM
CC(Sc1nc2ncccc2n1-c1ccc(C2CC2)c2ccccc12)C(=O)Nc1ccc(S(N)(=O)=O)cc1Cl	3.2 µM
O=[N+]([O-])c1ccc(CN2CCC(N=C3C=C(Cc4cccc5ccccc45)NS(=O)(=O)N3)CC2)cc1	104 µM
Cc1ccnc2c1NC(=O)c1cccnc1N2C1CC1	>2 µM
O=S1(=O)NC(Cc2ccc3ccccc3c2)=CC(=NCCc2ccccc2)N1	141 µM
NC(N)=NCCC[C@H]1/C=C/[C@@H](Cc2ccc3ccccc3c2)C(=O)NCC(=O)N[C@H](Cc2ccc(O)cc2)C(=O)N[C@@H](CCCN=C(N)N)C(=O)N1	>100 µM
Cc1c(Cc2cccc3ccccc23)nc(SCc2cn(Cc3ccccc3C#N)nn2)[nH]c1=O	123 µM
CC(Sc1nc2ncccc2n1-c1ccc(C2CC2)c2ccccc12)C(=O)Nc1ccc(C(N)=O)cc1Br	3.05 µM
O=S1(=O)NC(Cc2cccc3ccccc23)=CC(=NC2CCN(Cc3ccc(Br)cc3)CC2)N1	83.78 µM
Cc1cn([C@H]2C[C@H](N=[N+]=[N-])[C@@H](COC(=O)CCC(=O)OC[C@H]3O[C@@H]4O[C@H]5[C@H](O)[C@@H](O)[C@@H](O[C@H]6[C@H](O)[C@@H](O)[C@@H](O[C@H]7[C@H](O)[C@@H](O)[C@@H](O[C@H]8[C@H](O)[C@@H](O)[C@@H](O[C@H]9[C@H](O)[C@@H](O)[C@@H](O[C@H]3[C@H](O)[C@H]4O)O[C@@H]9CO)O[C@@H]8CO)O[C@@H]7CO)O[C@@H]6CO)O[C@@H]5CO)O2)c(=O)[nH]c1=O	5.66 µg/mL
Cc1c(C(C)CC2CCCCC2)nc(SCC(=O)c2ccccc2)[nH]c1=O	179 µM
c1cc(CN2CCCNCCNCCCNCC2)ccc1CN1CCCNCCNCCCNCC1	>9.94 µM
O=S1(=O)NC(Cc2cccc3ccccc23)=CC(=NC2CCN(Cc3ccc(F)cc3)CC2)N1	120 µM
c1ccc2c(c1)-n1cnnc1Cc1nncn1-2	>200 µM
Cc1cn([C@H]2C=C[C@@H](COP(=O)(Nc3cc(C(=O)Nc4cc(C(=O)NCCC(=N)N)n(C)c4)n(C)c3)OC(C)C)O2)c(=O)[nH]c1=O	179 µM
Cc1cc(C#N)cc(C)c1Oc1ccnc(NC2CCN(CC(=O)Nc3ccc([N+](=O)[O-])cc3)CC2)n1	0.518 µM
Cc1ccnc2c1NC(=O)c1cccnc1N2C1CC1	>2.77 µM

A second listing of 8 rows from above:

| smiles | result |
|---|---|
| NCC#Cc1cn([C@H]2C=C[C@@H](CO)O2)c(=O)[nH]c1=O | >100 µM |
| Nc1ccn([C@H]2CC[C@@H](CO)O2)c(=O)n1 | >2.12 µg/mL |
| Cc1cn([C@@H]2C=C[C@H](COC(=O)NCCCCNC(=O)OC[C@H]3O[C@@H](n4cc(C)c(=O)[nH]c4=O)C[C@@H]3N=[N+]=[N-])O2)c(=O)[nH]c1=O | 217.3 µM |
| CC(Sc1nc2ncccc2n1-c1ccc(C2CC2)c2ccccc12)C(=O)Nc1ccc(C(N)=O)cc1Cl | 2.01 µM |
| C[C@H]1[C@H](O)[C@H](C)[C@@]2(NC(=O)OC(C)(C)C)O[C@@H]1[C@@H]1O[C@@H]12 | >440 µM |
| Cc1cn([C@H]2C[C@H](N=[N+]=[N-])[C@@H](COC(=O)CCC(=O)OCC3OC4OC5C(COS(=O)(=O)O)OC(OC6C(COS(=O)(=O)O)OC(OC7C(COS(=O)(=O)O)OC(OC8C(COS(=O)(=O)O)OC(OC9C(COS(=O)(=O)O)OC(OC3C(OS(=O)(=O)O)C4OS(=O)(=O)O)C(OS(=O)(=O)O)C9OS(=O)(=O)O)C(OS(=O)(=O)O)C8OS(=O)(=O)O)C(OS(=O)(=O)O)C7OS(=O)(=O)O)C(OS(=O)(=O)O)C6OS(=O)(=O)O)C(OS(=O)(=O)O)C5OS(=O)(=O)O)O2)c(=O)[nH]c1=O | 55.33 µg/mL |
| CCc1c(C(C)CC2CCCCC2)nc(SCC(=O)c2ccccc2)[nH]c1=O | 32 µM |
| Cc1cn([C@H]2C[C@H](N=[N+]=[N-])[C@@H](COC(=O)CCC(=O)OC[C@H]3O[C@@H]4O[C@H]5[C@H](O)[C@@H](O)[C@@H](O[C@H]6[C@H](O)[C@@H](O)[C@@H](O[C@H]7[C@H](O)[C@@H](O)[C@@H](O[C@H]8[C@H](O)[C@@H](O)[C@@H](O[C@H]9[C@H](O)[C@@H](O)[C@@H](O[C@H]3[C@H](O)[C@H]4O)O[C@@H]9CO)O[C@@H]8CO)O[C@@H]7CO)O[C@@H]6CO)O[C@@H]5CO)O2)c(=O)[nH]c1=O | 5.66 µg/mL |